Only a part is listed here, and it is no random draw. Records with an inconclusive call do not appear. Some structures show a salt or complex split into parts, the way the source records it. The source made the active and inactive calls. Cut-off read from the data, not from the text of the source: active = inhibition above about 35% (passing the limit was not always enough); inconclusive = no clear call, values can overlap the other calls.

For orientation: inhibition means the change of the read-out against control, counted positive when it falls.

The experiment concerns Botulinum neurotoxin type F light chain protease (Clostridium botulinum). The experiment can be described thus: BoNT/F light chain protease inhibitors, primary screen, biochemical, flow cytometry, MLPCN library (AID 588497). Note: plate controls were buffer without enzyme for full effect and enzyme alone for no effect. As to conditions: Multiplex microsphere protease cleavage assay, at 10 µM, active compounds read high. (In general: A flow cytometer gives signals particle by particle.)
As to `Cc1ccccc1NP(C)(=O)Nc1ccccc1C`, the inhibition is inactive: -7%. Consider `O=[N+]([O-])c1cc([N+](=O)[O-])c(C(F)(F)F)c([N+](=O)[O-])c1O`, for which the inhibition was inactive: 5.9%.

As for `CP(=O)(Nc1ccc2c(c1)OCCO2)Oc1ccccc1` (centres undefined), the inhibition was inactive: -3%. Take `CCOP(C)(=S)SCC(=O)NC(C)(CC)C(=O)O` (centres undefined): the inhibition is inactive: -10.5%.

For `CP(=O)(Nc1ccc(SC(F)(F)F)cc1)Oc1ccc(F)cc1` (centres undefined), the inhibition is inactive: 4.3%. For `Cc1c(C(c2ccc3c(c2)OCO3)c2c(C)n(C)n(-c3ccccc3)c2=O)c(=O)n(-c2ccccc2)n1C.O=[N+]([O-])c1cc([N+](=O)[O-])c(O)c([N+](=O)[O-])c1`, the inhibition is inactive: -1.5%. Turning to `O=[N+]([O-])c1ccc(OP2(=O)COCCO2)cc1` (centres undefined), the inhibition was inactive: -32.1%. Turning to `Cc1cc(-c2cccc3ccccc23)c(C)cn1.O=[N+]([O-])c1cc([N+](=O)[O-])c(O)c([N+](=O)[O-])c1`, the inhibition is inactive: 0.7%. The figure for `O=[N+]([O-])c1cc([N+](=O)[O-])c(NCC2CCS(=O)(=O)C2)c([N+](=O)[O-])c1` (centres undefined) is inactive: 25.2%. As for `CN(C)CCOC(=O)C(O)(c1ccccc1)C1CCCCC1` (centres undefined), the inhibition was inactive: -6.3%. As for `COc1ccc(NP(C)(=O)Oc2ccccc2OC)cc1` (centres undefined), the figure is inactive: -2.4%. As for `COc1ccc(OP(C)(=O)Nc2cccc(Br)c2)cc1` (centres undefined), the inhibition is inactive: -3.5%. Turning to `CP(=O)(Nc1ccccc1)Oc1ccc(F)cc1` (centres undefined), the inhibition was inactive: -23%. As for `Cc1c([N+](=O)[O-])cc([N+](=O)[O-])c(Br)c1[N+](=O)[O-]`, the figure is inactive: 0%; as for `CCN(CC)CCCOC(=O)C(O)(c1ccccc1)C1CCCCC1` (centres undefined), inactive: -3.4%.

For `CCOC(=O)c1ccc(NP(C)(=O)Oc2ccc(F)cc2)cc1` (centres undefined), the inhibition is inactive: 3%.

In the case of `COc1ccc(OP(C)(=O)Nc2ccc(SC(F)(F)F)cc2)cc1` (centres undefined), the inhibition is inactive: -6.2%. Turning to `CCN(CC)CCCNc1ccccc1[N+](=O)[O-].O=[N+]([O-])c1cc([N+](=O)[O-])c(O)c([N+](=O)[O-])c1`, the inhibition is inactive: 1.2%.

`COc1ccc2c(c1O)-c1c(O)c(OC)cc3c1[C@H](C2)[N+](C)(C)CC3.O=[N+]([O-])c1cc([N+](=O)[O-])c([O-])c([N+](=O)[O-])c1[O-]`: the inhibition was inactive: -11.5%. In the case of `O=C(OC1CN2CCC1CC2)c1ccc([N+](=O)[O-])cc1` (centres undefined), the inhibition is inactive: -0.3%.

With `O=C(OCCN1CCN(CCOCc2ccccc2)CC1)C(O)(c1ccccc1)c1ccccc1`, the inhibition is inactive: -4.4%. For the compound `CP(=O)(Nc1ccccc1F)Oc1ccccc1` (centres undefined), the inhibition was inactive: -0.1%. For the compound `CC(C)c1ccc(OP(C)(=O)Nc2ccc(SC(F)(F)F)cc2)cc1` (centres undefined), the inhibition was inactive: -2.1%. On to `O=[N+]([O-])c1cc([N+](=O)[O-])c(Nc2ccc(Cl)cc2)c([N+](=O)[O-])c1`, for which the inhibition was inactive: -4.3%. Turning to `CP(=O)(Nc1ccccn1)Oc1ccccc1` (centres undefined), the inhibition is inactive: 15.5%.

As for `COc1ccccc1OP(C)(=O)Nc1ccc(C)cc1C` (centres undefined), the inhibition was inactive: 4.5%. As for `CCc1ccc(OP(C)(=O)O)cc1`, the inhibition was inactive: 5.2%.

For the compound `O=[N+]([O-])c1cc([N+](=O)[O-])c(Nc2ccccn2)c([N+](=O)[O-])c1`, the inhibition was inactive: 1.4%. With `Cc1c(NP(C)(=O)Oc2ccc(C(C)C)cc2)c(=O)n(-c2ccccc2)n1C` (centres undefined), the inhibition was active: 34.9%. Take `COc1ccc(OP(C)(=O)Nc2ccccn2)cc1` (centres undefined): the inhibition was inactive: 1.8%.

As to `CN(C)CCOC(=O)C(O)(c1ccccc1)C1CCCC1` (centres undefined), the inhibition is inactive: 0.1%.

With `COc1ccccc1OP(C)(=O)Nc1ccc(Br)cc1` (centres undefined), the inhibition was inactive: -8.7%. As for `CP(=O)(OCCOc1ccccc1)OCCOc1ccccc1`, the figure is inactive: 0.5%; as for `CCCCCCCCCCCCCCCC1C[N+](C)(C)CCOP(C)(=O)O1` (centres undefined), inactive: -20.4%; as for `CP(=O)(Nc1ccc(Cl)cc1Cl)Oc1ccccc1` (centres undefined), inactive: -1.2%. As for `COc1ccccc1OP(C)(=O)Nc1ccc(C)c(C)c1` (centres undefined), the figure is inactive: 9%. `COc1ccc(OP(C)(=O)Nc2ccccc2Br)cc1` (centres undefined): the inhibition is inactive: 0.1%. As to `O=C1C(O)=C([N+](=O)[O-])C(=O)C(O)=C1[N+](=O)[O-]`, the inhibition is inactive: -9.5%. Regarding `Cc1cc(C)cc(OP(C)(=O)Nc2cccc(C(F)(F)F)c2)c1` (centres undefined), the inhibition was inactive: 6.5%. The figure for `CCOC(=O)c1ccc(NP(C)(=O)Oc2ccc(Cl)cc2)cc1` (centres undefined) is inactive: -4%. As for `CP(=O)(OC12CC3CC(CC(C3)C1)C2)OC12CC3CC(CC(C3)C1)C2`, the figure is inactive: -1.5%; as for `CN(C)C(=O)c1c([N+](=O)[O-])cc([N+](=O)[O-])cc1[N+](=O)[O-]`, inactive: 0.8%. With `CC(C)(C)c1ccc(OP(C)(=O)O)cc1`, the inhibition was inactive: -1.5%.

For the compound `COc1ccccc1OP(C)(=O)Nc1ccccc1Br` (centres undefined), the inhibition was inactive: -2.4%.

For `CP(=O)(Nc1ccc(Cl)cc1)Oc1ccc(F)cc1` (centres undefined), the inhibition was inactive: -15.5%. As to `COc1ccccc1OP(C)(=O)Nc1c(C)n(C)n(-c2ccccc2)c1=O` (centres undefined), the inhibition was inactive: -1.5%. For the compound `CP(=O)(Oc1ccccc1)N1CCOC1=O` (centres undefined), the inhibition is inactive: -0.9%. As for `CCc1ccc(OP(C)(=O)Nc2cccnc2)cc1` (centres undefined), the figure is inactive: -3%. Take `CCN(CC)CC(O)COC(=O)C(O)(c1ccccc1)C1CCCCC1` (centres undefined): the inhibition was inactive: 14.3%.

For the compound `COc1ccc(OP(C)(=O)Nc2ccc(Br)cc2)cc1` (centres undefined), the inhibition was inactive: -1%. Regarding `CP(=O)(Nc1ccccn1)Oc1ccc(Cl)cc1` (centres undefined), the inhibition is inactive: -3.6%. Take `CCOC(=O)c1ccc(NP(C)(=O)Oc2ccc(OC)cc2)cc1` (centres undefined): the inhibition is inactive: -2.8%. As for `CCOP(C)(=S)SCC(=O)NC(C)C(=O)O` (centres undefined), the figure is inactive: -4%. For the compound `CCc1ccc(OP(C)(=O)N2CCN(c3ccc([N+](=O)[O-])cc3)CC2)cc1` (centres undefined), the inhibition is inactive: 25.2%. As to `CP(=O)(NC(=O)Nc1ccccc1)Oc1ccccc1` (centres undefined), the inhibition was inactive: -3.2%. The figure for `Cc1cc(C)cc(OP(C)(=O)Nc2ccc(SC(F)(F)F)cc2)c1` (centres undefined) is inactive: 2.5%; for `Cc1ccc(Nc2c([N+](=O)[O-])cc([N+](=O)[O-])cc2[N+](=O)[O-])cc1` it is inactive: -6.6%; for `Cc1cccc(C)c1OP(C)(=O)Nc1ccc(SC(F)(F)F)cc1` (centres undefined) it is inactive: -6.6%. Regarding `CP(=O)(Nc1ccc(SC(F)(F)F)cc1)Oc1ccc(Cl)cc1` (centres undefined), the inhibition is inactive: -11.3%.

These data come from PubChem BioAssay AID588497 (NMMLSC, 2011).
